Data taken from patent US20080280761A1 (priority 2005, published 2008).

Experiments:
[1] = system: thylakoid membrane, electron transfer reaction of two photosystems, especially photosystem II; experiment: effect on plant photosynthesis (mechanism); type: biochemical
[2] = system: Eupatorium adenophorum sprengel lamina; experiment: pathogenicity test by needle puncture on crofton weed leaf; type: in vivo; conditions: 50 μg/g, 48 hours; for toxicity compared with germfree filtrate: P<0.01; for pathogenicity to Eupatorium adenophorum spreng: needle puncture

Molecule | structure and synthesis of membrane protein [1] | toxicity compared with germfree filtrate [2] | pathogenicity to Eupatorium adenophorum spreng [2]
CC(=O)C1=C(O)C(CC(C)C)NC1=O (centres unmarked) [iso-tenuazonic acid] | no effect | – | –
CCC(C)C1NC(=O)C(C(C)=O)=C1O (centres unmarked) [tenuazonic acid] | no effect | – | –
magnesium iso-tenuazonate | – | apparently higher | high pathogenetic
magnesium tenuazonate | – | apparently higher | high pathogenetic
magnesium tenuazonate iso-tenuazonate | – | apparently higher | high pathogenetic
